Laboratory results: paper PMC11258689, “A Snake Venom Peptide and Its Derivatives Prevent Aβ42 Aggregation and Eliminate Toxic Aβ42 Aggregates In Vitro” (ACS Chemical Neuroscience, 2024)
Values joined by “and” are separate entries in the source; they are usually repeats but may differ in a detail not shown here. Equal entries are not always repeated. Residues, ends and D or L forms follow the SMILES beside them.

Assay: Circular dichroism, secondary structure content (BeStSel)
Type: physicochemical
Settings: CD, 30 μM peptide in ddH2O, far-UV 190-260 nm

With `COC(=O)[C@H](CCCCN)NC(=O)[C@H](CCCCN)NC(=O)[C@H](CS)NC(=O)[C@H](CS)NC(=O)[C@H](CCCCN)NC(=O)[C@H](Cc1c[nH]c2ccccc12)NC(=O)[C@H](CCCNC(=N)N)NC(=O)[C@H](Cc1c[nH]c2ccccc12)NC(=O)[C@H](CCCNC(=N)N)NC(=O)[C@H](CS)NC(=O)[C@H](CC(=O)O)NC(=O)[C@H](CCSC)NC(=O)[C@H](CCCCN)NC(C)=O` [CDP-1] (Ac-KMDCRWRWKCCKK-OMe; C-terminus assumed) as the compound, how does the “Others (secondary structure)” value read?
The value was 75%.

What about the α-helix of the same compound?
Its α-helix is 25%.

Which “Others (secondary structure)” value does the source give for `COC(=O)[C@H](CCCCN)NC(=O)[C@H](CCCCN)NC(=O)[C@H](CO)NC(=O)[C@H](CO)NC(=O)[C@H](CCCCN)NC(=O)[C@H](Cc1c[nH]c2ccccc12)NC(=O)[C@H](CCCNC(=N)N)NC(=O)[C@H](Cc1c[nH]c2ccccc12)NC(=O)[C@H](CCCNC(=N)N)NC(=O)[C@H](CO)NC(=O)[C@H](CC(=O)O)NC(=O)[C@H](CCSC)NC(=O)[C@H](CCCCN)NC(C)=O` [CDP-2] (Ac-KMDSRWRWKSSKK-OMe) here?
Its value is 97%.

What about the α-helix of the same compound?
The α-helix was 3% and < 7%.
